Experimental findings from ChEMBL document CHEMBL5316329, “Structure-Based Optimization of 2,4,5-Trisubstituted Pyrimidines as Potent HIV-1 Non-Nucleoside Reverse Transcriptase Inhibitors: Exploiting the Tolerant Regions of the Non-Nucleoside Reverse Transcriptase Inhibitors' Binding Pocket” (J Med Chem, 2023) are described below.

The assay deals with Human immunodeficiency virus type 1 reverse transcriptase (Human immunodeficiency virus 1, UniProt Q72547). In words: Inhibition of wild-type HIV-1 reverse transcriptase assessed as inhibition of biotin-dUTP incorporation.

Take `Cc1cc(C#N)cc(C)c1Oc1nc(Nc2ccc(C#N)cc2)nc(N)c1Br` [ETRAVIRINE]: the 50% effective concentration (EC50) is 3.55 nM.

The term EC50 denotes the concentration at which the effect is half-maximal.
